Results of unrelated studies side by side (data: NIAID ChemDB).

All rows: growth or infection tests; species: Aspergillus flavus; measure: MIC

Rows are shuffled and stem from different studies. An empty or dashed field is not shown. a–b is a range or a potency band.

compound,strain,method,value
C[C@H]1[C@H](O)[C@@H](C)/C=C/C=C/C=C/C=C/C=C/C=C/C=C/[C@H](O[C@@H]2O[C@H](C)[C@@H](O)[C@H](N)[C@@H]2O)C[C@@H]2O[C@](O)(C[C@@H](O)C[C@@H](O)CC[C@H](O)[C@@H](O)C[C@@H](O)CC(=O)O[C@H]1C)C[C@H](O)[C@H]2C(=O)O,VPCI 190/96,broth dilution,1.95 µg/mL
CCC(C)CC(C)CCCCCCCCC(=O)N[C@H]1C[C@@H](O)[C@H](NCCN)NC(=O)[C@@H]2[C@@H](O)CCN2C(=O)[C@H]([C@H](O)CCN)NC(=O)[C@H]([C@H](O)[C@@H](O)c2ccc(O)cc2)NC(=O)[C@@H]2C[C@@H](O)CN2C(=O)[C@H]([C@@H](C)O)NC1=O,,,0.015–8 µg/mL
C=CCc1ccc(O)c(OC)c1,NRRL 501,broth dilution,160 µg/mL
O=C/C=C/c1ccccc1,NRRL3357,agar,500 µM
C[C@H]1[C@H](O)[C@@H](C)/C=C/C=C/C=C/C=C/C=C/C=C/C=C/[C@H](O[C@@H]2O[C@H](C)[C@@H](O)[C@H](N)[C@@H]2O)C[C@@H]2O[C@](O)(C[C@@H](O)C[C@@H](O)CC[C@H](O)[C@@H](O)C[C@@H](O)CC(=O)O[C@H]1C)C[C@H](O)[C@H]2C(=O)O,,,0.5–16 µg/mL
C[C@@H]1OC(OC[C@H]2OC(Oc3c(-c4ccc(O)c(O)c4)oc4cc(O)cc(O)c4c3=O)[C@H](O)[C@@H](O)[C@@H]2O)[C@H](O)[C@H](O)[C@H]1O,,,320 µM
COc1ccc([Se][Se]c2ccc(OC)cc2)cc1,,broth dilution,>64 µg/mL
CC(C)=CCC/C(C)=C/CO,NRRL 501,broth dilution,144 µg/mL
COc1ccc(Cn2nc(C3CC3)cc2NC(=O)c2ccc(Cl)cc2Cl)cc1,,,23 µg/mL
C[C@@H](c1nc(-c2ccc(C#N)cc2)cs1)[C@](O)(Cn1cncn1)c1cc(F)ccc1F,,,0.25–16 µg/mL
COc1ccc(Cn2nc(C3CC3)cc2NC(=O)c2ccc(Cl)cc2)cc1,,,54 µg/mL
COc1cc(C=O)cc(OC)c1,NRRL3357,agar,1500 µM
COc1ccc(Cn2nc(C3CC3)cc2NC(=O)c2cccc(OC)c2)cc1,,,50 µg/mL
OC(Cn1cncn1)(Cn1cncn1)c1ccc(F)cc1F,,broth dilution,25 µg/mL
C[C@@H]1O[C@@H](OC[C@H]2O[C@@H](Oc3c(-c4ccc(O)cc4)oc4cc(O)cc(O)c4c3=O)[C@H](O)[C@@H](O)[C@@H]2O)[C@H](O)[C@H](O)[C@H]1O,,,320 µg/mL
C[C@@H]1[C@H](O)[C@@H](C)/C=C/C=C/CC/C=C/C=C/C=C/C=C/C(O[C@H]2O[C@H](C)[C@@H](O)[C@H](N)[C@@H]2O)CC2O[C@](O)(CC(O)C(O)CCC(O)CC(O)CC(O)CC(=O)O[C@H]1C)CC(O)C2C(=O)O,,agar diffusion,8 µg/mL
CC[C@@H]([C@H](C)O)n1ncn(-c2ccc(N3CCN(c4ccc(OC[C@@H]5CO[C@@](Cn6cncn6)(c6ccc(F)cc6F)C5)cc4)CC3)cc2)c1=O,,,0.125–2 µg/mL
COc1ccc(Cn2nc(C3CC3)cc2NC(=O)c2ccccc2)cc1,,,31 µg/mL
FC(F)(F)c1cccc([Se][Se]c2cccc(C(F)(F)F)c2)c1,,broth dilution,>64 µg/mL